## Fitness of HIV-1 LAI Vif variants in SupT1-APOBEC3G cells

Vif of LAI (a laboratory-adapted subtype B strain), residues 12-115; positions count from the first residue of the whole protein:
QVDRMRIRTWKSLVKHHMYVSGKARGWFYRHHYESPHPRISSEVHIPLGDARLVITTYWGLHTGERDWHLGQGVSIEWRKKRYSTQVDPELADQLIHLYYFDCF

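Pooled viruses with one designed change each in Vif went through two 72 h rounds in SupT1 cells expressing APOBEC3G. Each of three replicates was sequenced after round two and set against the merged round-one pool. The overlap of vif with pol had been removed, so integrase is unaffected.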

Scale: log2 enrichment, wild type = 0; negative values mean that the variant was depleted.
Each entry names the wild-type residue, its position and the residue put in its place.
All changes here are to glycine.
The median of three replicates is given, with the replicates in brackets.
Input reads are the counts in the merged round-one pool, before selection.

- E76G (input reads 363) = -1.22 (-1.48 / -1.05 / -1.22)
- R77G (input reads 613) = -1.14 (-1.14 / 2.17 / -1.26)
- D78G (input reads 116) = -1.49 (-4.23 / 3.34 / -1.49)
- V85G (input reads 402) = -1.14 (-1.14 / 1.90 / -3.03)
- I87G (input reads 702) = -1.05 (-1.05 / 1.71 / -2.34)
- E88G (input reads 315) = -0.37 (-0.37 / 2.22 / -1.17)
- R90G (input reads 26) = 1.35 (-0.52 / 5.51 / 1.35)
- K91G (input reads 40) = 4.88 (0.99 / 4.88 / 5.26)
- K92G (input reads 478) = -2.62 (-2.54 / -4.59 / -2.62)
- Q97G (input reads 30) = -0.67 (-0.67 / -4.29 / 3.10)
- V98G (input reads 58) = -1.64 (-1.64 / -5.25 / -0.24)
- D99G (input reads 457) = -1.81 (-1.81 / -0.62 / -2.27)
- E101G (input reads 199) = -2.64 (-2.64 / -0.87 / -3.88)
- L102G (input reads 176) = -3.71 (-1.37 / -5.25 / -3.71)
- A103G (input reads 29) = -2.70 (-2.22 / -4.26 / -2.70)
- Q105G (input reads 219) = -2.11 (-1.68 / -3.05 / -2.11)
- I107G (input reads 129) = -4.84 (0.69 / -6.36 / -4.84)
- F112G (input reads 34) = 0.72 (0.72 / -4.48 / 2.56)
- D113G (input reads 278) = -2.21 (3.58 / -2.21 / -3.15)
- F115G (input reads 116) = -4.65 (-4.22 / -4.65 / -4.69)

A selection of 3 entries from above:

mutation	input reads	median score
R90G	26	1.35 (-0.52 / 5.51 / 1.35)
K92G	478	-2.62 (-2.54 / -4.59 / -2.62)
I107G	129	-4.84 (0.69 / -6.36 / -4.84)

The authors note that some positive scores may be noise, and some enriched variants failed when tested singly.
Replicates agree only moderately (rank correlation about 0.4-0.65); scores from under about 50 input reads tend to be too high.
Not every substitution is listed.

The measurements come from Langley et al. 2025, preprint (doi:10.1101/2025.10.20.683452).